A mixed list of measured activities; the numbers were collected in NIAID ChemDB.

Shared fields: target-level tests

Neighbouring rows are from separate reports. Fold resistance has wild type as its base. ICn: concentration for n% inhibition. a–b is a range or a potency band. Blank or dashed fields: not listed here. Inhibition is in % at the dose shown (toxicity tests: loss of growth or viability).

smiles,protein,tested at,mutations,endpoint,method,result
O=C(O[C@@H]1Cc2c(O)cc(O)cc2O[C@@H]1c1cc(O)c(O)c(O)c1)c1cc(O)c(O)c(O)c1,CD4,-,-,IC50,ELISA,<50 µM
NC(N)=NCCC[C@H](N)C(=O)NC[C@@H]1OC(O[C@H]2[C@@H](O)[C@H](O[C@@H]3[C@@H](O)[C@H](NC(=O)[C@@H](N)CCCN=C(N)N)C[C@H](NC(=O)[C@@H](N)CCCN=C(N)N)[C@H]3O[C@H]3O[C@H](CNC(=O)[C@@H](N)CCCN=C(N)N)[C@@H](O)[C@H](O)[C@H]3NC(=O)[C@@H](N)CCCN=C(N)N)O[C@@H]2CO)[C@H](NC(=O)[C@@H](N)CCCN=C(N)N)[C@@H](O)[C@@H]1O,CXCR4,-,-,IC50,-,2.7 µM
CN1C(=O)C(c2cc(Cl)c(O)c(Cl)c2)NC(=O)[C@@H]2NC(=O)C(c3cc(Cl)c(O)c(Cl)c3)NC(=O)[C@H](NC(=O)C(=O)c3cc(Cl)c(O)c(Cl)c3)Cc3c[nH]c4c(cccc34)-c3cc2cc(c3O)Oc2ccc(cc2)CC1C(=O)NC(C(=O)O)c1ccc(O)cc1,gp120,10 µg/mL,-,inhibition,ELISA,100%
CN(C[C@@H](CCc1ccc(-c2ccccc2)cn1)c1cccc(Cl)c1)S(=O)(=O)c1ccccc1,CCR5,-,-,IC50,radioligand binding / binding,30 µM
CC(C)(O)c1cccc(CN2C(=O)N(Cc3cccc(C(C)(C)O)c3)[C@H](Cc3ccccc3)[C@H](O)[C@@H](O)[C@H]2Cc2ccccc2)c1,Cathepsin D,12.5 µM,-,inhibition,-,0%
NC(N)=NCCC[C@H](N)C(=O)NC[C@H]1O[C@H](O[C@H]2[C@H](O)[C@@H](O)[C@H](NC(=O)[C@@H](N)CCCN=C(N)N)C[C@@H]2NC(=O)[C@@H](N)CCCN=C(N)N)[C@H](NC(=O)[C@@H](N)CCCN=C(N)N)[C@@H](O)[C@@H]1O,CXCR4,10 µM,-,inhibition,flow cytometry,60%
O=c1ccn([C@H]2C[C@H](F)[C@@H](CO)O2)c(=O)[nH]1,Thymidine kinase,-,-,Ki,thymidine uptake / kinase activity,392 µM
NC(N)=NCCC[C@H](N)C(=O)NC[C@@H]1OC(O[C@H]2[C@@H](O)[C@H](O[C@@H]3[C@@H](O)[C@H](N)C[C@H](N)[C@H]3O[C@H]3O[C@H](CNC(=O)[C@@H](N)CCCN=C(N)N)[C@@H](O)[C@H](O)[C@H]3N)O[C@@H]2CO)[C@H](N)[C@@H](O)[C@@H]1O,CXCR4,-,-,IC50,flow cytometry,10 µM
C=C[C@@H]1C[C@]1(NC(=O)[C@@H]1C[C@@H](Oc2nccc3ccc(Br)cc23)CN1C(C)=O)C(=O)NS(=O)(=O)C1CC1,Cys159,-,-,IC50,FRET,>3 µM
NC(N)=NCCC[C@H]1/C=C/[C@@H](Cc2ccc3ccccc3c2)C(=O)NCC(=O)N[C@H](Cc2ccc(O)cc2)C(=O)N[C@@H](CCCN=C(N)N)C(=O)N1,CXCR4,-,-,IC50,radiometric,31–100 µM
CN(CC(C)(CCN1CCC(N(CCO)C(=O)OCc2ccc([N+](=O)[O-])cc2)CC1)c1ccsc1)S(=O)(=O)c1ccccc1,CCR5,-,CCR5-W86A,fold resistance,radiometric,455
CCCCC1C(=O)Nc2cc(C(=O)N3CCN(C(C)(C)OC(C)=O)CC3)ccc2N1CC,DC-SIGN,-,-,IC50,fluorescence,270 µM
NC(N)=NCCC[C@@H]1NC(=O)CNC(=O)[C@H](Cc2ccc3ccccc3c2)NC(=O)[C@H](CCCN=C(N)N)NC(=O)[C@@H](Cc2ccc(O)cc2)NC1=O,CXCR4,-,-,IC50,radiometric,0.3 µM
CN(CCCNN)C[C@H]1O[C@@H](n2cnc3c(N)ncnc32)[C@H](O)[C@@H]1O,Ornithine decarboxylase,-,-,IC50,-,30 µM
CCOC(=O)C1=CN(Cc2ccccc2)C2C(CO)(C3N(Cc4ccccc4)C=C(C(=O)OCC)[C@H](c4ccccc4)C23CO)[C@H]1c1ccccc1,P-glycoprotein,-,-,IC50,fluorescence,64.76 µM
CN(C[C@@H](CCNCc1ccccc1)c1cccc(Cl)c1)S(=O)(=O)c1ccccc1,CCR5,-,-,IC50,radioligand binding / binding,>10 µM
NC(N)=NCCC[C@@H]1NC(=O)[C@@H](Cc2ccc(O)cc2)NC(=O)CNC(=O)[C@H](Cc2ccc3ccccc3c2)NC(=O)[C@H](CCN=C(N)N)NC1=O,CXCR4,-,-,IC50,radiometric,1.1 µM
CC#CCN1C(=O)[C@H]([C@@H](O)C2CCCCC2)NC(=O)C12CCN(Cc1c(C)nn(-c3ccccc3)c1C)CC2,CCR5,10 µM,-,inhibition,radiometric,25%
CN(CCCCON)C[C@H]1O[C@@H](n2cnc3c(N)ncnc32)[C@H](O)[C@@H]1O,Ornithine decarboxylase,-,-,IC50,-,150 µM
NC(=O)c1nnn(Cc2cc(Cl)c(C(=O)c3ccc(Cl)cc3)c(Cl)c2)c1N,Nuclear factor-kappa B,-,-,IC50,gel,<10 µM
CN(CC(CN1CCC(c2ccccc2)CC1)c1ccccc1)S(=O)(=O)c1ccccc1,CCR5,-,-,IC50,radioligand binding / binding,>10 µM
CC1CNCCN1S(=O)(=O)c1cccc2cnccc12,Protein kinase A,-,-,IC50,-,10 µM
Nc1ncnc2c1ncn2CCOCP(=O)(O)O,Adenosine deaminase,-,-,IC50,-,>500 µM
NC[C@@H]1O[C@H](O[C@H]2[C@@H](O)[C@H](O[C@@H]3[C@@H](O)[C@H](N)C[C@H](N)[C@H]3O[C@H]3O[C@H](CN)[C@@H](O)[C@H](O)[C@H]3N)O[C@@H]2CO)[C@H](N)[C@@H](O)[C@@H]1O,CXCR4,-,-,IC50,flow cytometry,>10 µM
CC(C)=CCC[C@H](C)[C@H]1CC[C@]2(C)C[C@H]3[C@H](C(=O)C[C@@]3(C)O)C(C=O)=C[C@@H]12,gp120,-,-,IC50,radiometric,40 µM
O=C1N(Cc2ccc(CO)cc2)[C@H](Cc2ccccc2)[C@H](O)[C@@H](O)[C@@H](Cc2ccccc2)N1Cc1ccc(CO)cc1,Cathepsin D,200 µM,-,inhibition,-,2.5%
CN(CC(CN1CCC2(CC1)CS(=O)(=O)c1ccccc12)c1ccccc1)S(=O)(=O)c1ccccc1,CCR5,-,-,IC50,radioligand binding / binding,>10 µM
O=c1[nH]c(=O)n([C@H]2C[C@H](F)[C@@H](CO)O2)cc1I,Thymidine kinase,-,-,Ki,thymidine uptake / kinase activity,5.2 µM
CN1CC[C@H](c2c(O)cc(O)c3c(=O)cc(-c4ccccc4F)oc23)[C@H](O)C1,Cyclin-dependent kinase 1,-,-,IC50,kinase activity,0.123 µM
CC(=O)N[C@@H](Cc1cc(I)c(Oc2ccc(O)c(I)c2)c(I)c1)C(=O)O,Protein disulfide isomerase,-,-,IC50,-,86 µM
O=Nc1c(-c2c(O)[nH]c3ccccc23)[nH]c2ccccc12,Cyclin-dependent kinase 7,-,-,IC50,radiometric,>4 µM
CC(C)CN(C[C@@H](O)[C@H](Cc1ccccc1)NC(=O)[C@H](CC(N)=O)NC(=O)c1ccc2ccccc2n1)C(=O)NC(C)(C)C,Cathepsin D,10 µM,-,inhibition,-,4%
CN(C[C@@H](CCN1CCC2(CC1)C(=O)NCC2c1ccccc1)c1cccc(Cl)c1)S(=O)(=O)c1ccccc1,CCR5,-,-,IC50,radioligand binding / binding,0.3 µM
C[C@@H]1C[C@H]2CC(=O)O[C@]3(C1)N1CCCC(=O)[C@]23CCC1,Acetylcholinesterase,-,-,IC50,-,90.3 µM
CN(C[C@@H](CCN1CCC(c2ccccc2)CC1)c1cccc(Cl)c1)S(=O)(=O)c1ccccc1,CCR5,-,-,IC50,radioligand binding / binding,0.04 µM
NC(N)=NCCC[C@@H]1NC(=O)[C@H](CCCN=C(N)N)NC(=O)[C@@H](Cc2ccc(O)cc2)NC(=O)C/C=C/[C@H](Cc2ccc3ccccc3c2)NC1=O,CXCR4,-,-,IC50,radiometric,0.18 µM
NC(N)=NCCC[C@@H]1NC(=O)[C@H](CCCN=C(N)N)NC(=O)[C@@H](Cc2ccc(O)cc2)NC(=O)CNC(=O)[C@H](Cc2nc3ccccc3s2)NC1=O,CXCR4,-,-,IC50,radiometric,0.018 µM
C[C@@H]1CN(C(=O)c2ccccc2)CCN1C(=O)C(=O)c1c[nH]c2nccc(OCCOCCOCCOCCOCCOCCn3cc(COCCOCCOCCOCCNc4ccc([N+](=O)[O-])cc4[N+](=O)[O-])nn3)c12,gp120,-,-,IC50,ELISA,8.7 µM
[N-]=[N+]=N[C@H]1C[C@H](n2cc(I)c(=O)[nH]c2=O)O[C@@H]1COP(=O)(O)OP(=O)(O)OP(=O)(O)O,Thymidylate kinase,-,-,Ki,nucleotide incorporation,55.3 µM
NC(N)=NCCC[C@@H]1NC(=O)[C@H](CCCN=C(N)N)NC(=O)[C@@H](Cc2ccccc2)NC(=O)CNC(=O)[C@H](Cc2ccc3ccccc3c2)NC1=O,CXCR4,-,-,IC50,radiometric,0.051 µM
CC(C)(C)OC(=O)N[C@@H](Cc1ccccc1)[C@H](O)CNC[C@@H](O)[C@H](Cc1ccccc1)NC(=O)OC(C)(C)C,Cathepsin D,-,-,IC50,absorbance,>31 µM
O=C(O)c1cc(O)cc(O)c1N=Nc1ccc(/C=C/c2ccc(N=Nc3c(O)cc(O)cc3C(=O)O)cc2S(=O)(=O)O)c(S(=O)(=O)O)c1,gp120,50 µM,-,inhibition,-,100%
Brc1c(Br)c(Br)c2[nH]c(I)nc2c1Br,Protein kinase A,-,-,IC50,-,>30 µM
COc1ccc2c(c1)c1c3c(c4c5ccccc5n(C)c4c1n2CCC#N)C(=O)NC3=O,Protein kinase C,-,-,IC50,-,0.0015 µM
CC(=O)N1CCC(C(=O)N(CCCN2CCC(Cc3ccc(C(N)=O)cc3)CC2)c2ccc(C)c(Cl)c2)CC1,CCR3,-,-,IC50,radiometric,>10 µM
CC(C)(C)OC(=O)NCCC(=O)Nc1cccc(C(c2c(O)c3c(oc2=O)CCCCCC3)C2CC2)c1,Cathepsin D,25 µM,-,inhibition,-,0%
CNC(C)[C@H]1O[C@H](O[C@@H]2[C@@H](O)[C@H](O[C@@H]3OC[C@@](C)(O)[C@@H](NC)[C@@H]3O)[C@@H](NC(=O)[C@@H](N)CCCN=C(N)N)C[C@H]2NC(=O)[C@@H](N)CCCN=C(N)N)[C@H](NC(=O)[C@@H](N)CCCN=C(N)N)[C@@H](O)[C@@H]1O,CXCR4,-,-,IC50,-,2 µM
CCO/N=C(\c1ccc(Br)cc1)C1CCN(C2(C)CCN(C(=O)c3c(C)cc[n+]([O-])c3C)CC2)CC1,CCR3,-,-,IC50,-,>20 µM
CN(C[C@@H](CCN1CCC(C(C)(C)C)CC1)c1cccc(Cl)c1)S(=O)(=O)c1ccccc1,CCR5,10 µM,-,inhibition,radioligand binding / binding,74%
O=C1NCc2c1c1c3ccccc3[nH]c1c1[nH]c3ccccc3c21,cGMP-dependent kinase,-,-,IC50,-,7 µM
O=C(c1ccccc1)N1C[C@H](CN2CCC(c3ccccc3)CC2)[C@@H](c2ccccc2)C1,CCR5,-,CCR5-E283A,fold resistance,radiometric,>1000
CCCCCCCCCCCCCCCCO[C@H](CCl)COP(=O)(O)OCC[N+](C)(C)C,Protein kinase C,19 µM,-,inhibition,-,78%
NC(N)=NCCCC(N)C(=O)NC[C@H]1O[C@H](O[C@H]2[C@H](O)[C@@H](O)[C@H](N)C[C@@H]2N)[C@H](N)[C@@H](O)[C@@H]1O,CXCR4,10 µM,-,inhibition,flow cytometry,5%
CC(C)(C)NC(=O)[C@@H]1CN(Cc2cnc3occc3c2)CCN1C[C@@H](O)C[C@@H](Cc1ccccc1)C(=O)N[C@H]1c2ccccc2C[C@H]1O,Cytochrome P450,-,-,IC50,-,~10 µM
CNC(C)[C@H]1O[C@H](O[C@@H]2[C@@H](O)[C@H](O[C@@H]3OC[C@@](C)(O)[C@@H](NC)[C@@H]3O)[C@@H](NC(=O)[C@@H](N)CCCN=C(N)N)C[C@H]2NC(=O)[C@@H](N)CCCN=C(N)N)[C@H](NC(=O)[C@@H](N)CCCN=C(N)N)[C@@H](O)[C@@H]1O,CXCR4,10 µM,-,inhibition,flow cytometry,84%
OC[C@H]1O[C@@H](n2c(I)nc3cc(Br)c(Br)cc32)[C@H](O)[C@@H]1O,Protein kinase A,-,-,IC50,-,>30 µM
Cc1cc(SC2=C(O)C[C@@](CCc3ccc(O)cc3)(C(C)C)OC2=O)c(C(C)(C)C)cc1CO,Cytochrome P450 2C9,10 µM,-,inhibition,-,14%
N#CCCn1c2ccc(O)cc2c2c3c(c4c5cc(O)ccc5[nH]c4c21)C(=O)NC3,Tyrosine kinase,-,-,IC50,-,>10 µM
O=C(O)[C@@H](C1CCCCC1)N1C[C@H](CN2CCC(O)(CCCc3ccccc3)CC2)[C@@H](c2ccccc2)C1,L-type Ca2+ channel,-,-,IC50,-,>10 µM
Clc1c(Cl)c(Cl)c2n[nH]nc2c1Cl,Protein kinase C,-,-,IC50,-,>30 µM
Cn1c2ccccc2c2c3c(c4c5ccccc5n(CCC#N)c4c21)CNC3=O,cAMP-dependent protein kinase,-,-,IC50,-,>100 µM

For reference, 4 entries again:

CCOC(=O)C1=CN(Cc2ccccc2)C2C(CO)(C3N(Cc4ccccc4)C=C(C(=O)OCC)[C@H](c4ccccc4)C23CO)[C@H]1c1ccccc1 ; protein: P-glycoprotein ; endpoint: IC50 ; method: fluorescence ; result: 64.76 µM
Cc1cc(SC2=C(O)C[C@@](CCc3ccc(O)cc3)(C(C)C)OC2=O)c(C(C)(C)C)cc1CO ; protein: Cytochrome P450 2C9 ; tested at: 10 µM ; endpoint: inhibition ; result: 14%
NC(N)=NCCC[C@H](N)C(=O)NC[C@@H]1OC(O[C@H]2[C@@H](O)[C@H](O[C@@H]3[C@@H](O)[C@H](N)C[C@H](N)[C@H]3O[C@H]3O[C@H](CNC(=O)[C@@H](N)CCCN=C(N)N)[C@@H](O)[C@H](O)[C@H]3N)O[C@@H]2CO)[C@H](N)[C@@H](O)[C@@H]1O ; protein: CXCR4 ; endpoint: IC50 ; method: flow cytometry ; result: 10 µM
CN1C(=O)C(c2cc(Cl)c(O)c(Cl)c2)NC(=O)[C@@H]2NC(=O)C(c3cc(Cl)c(O)c(Cl)c3)NC(=O)[C@H](NC(=O)C(=O)c3cc(Cl)c(O)c(Cl)c3)Cc3c[nH]c4c(cccc34)-c3cc2cc(c3O)Oc2ccc(cc2)CC1C(=O)NC(C(=O)O)c1ccc(O)cc1 ; protein: gp120 ; tested at: 10 µg/mL ; endpoint: inhibition ; method: ELISA ; result: 100%